Data: patent US20040147006

Sequences of proteins named here, by UniProt entry; tags and fusion partners are left off. A change or cut given only in a name is not applied to a line headed by its entry.
UniProt Q3L6L5: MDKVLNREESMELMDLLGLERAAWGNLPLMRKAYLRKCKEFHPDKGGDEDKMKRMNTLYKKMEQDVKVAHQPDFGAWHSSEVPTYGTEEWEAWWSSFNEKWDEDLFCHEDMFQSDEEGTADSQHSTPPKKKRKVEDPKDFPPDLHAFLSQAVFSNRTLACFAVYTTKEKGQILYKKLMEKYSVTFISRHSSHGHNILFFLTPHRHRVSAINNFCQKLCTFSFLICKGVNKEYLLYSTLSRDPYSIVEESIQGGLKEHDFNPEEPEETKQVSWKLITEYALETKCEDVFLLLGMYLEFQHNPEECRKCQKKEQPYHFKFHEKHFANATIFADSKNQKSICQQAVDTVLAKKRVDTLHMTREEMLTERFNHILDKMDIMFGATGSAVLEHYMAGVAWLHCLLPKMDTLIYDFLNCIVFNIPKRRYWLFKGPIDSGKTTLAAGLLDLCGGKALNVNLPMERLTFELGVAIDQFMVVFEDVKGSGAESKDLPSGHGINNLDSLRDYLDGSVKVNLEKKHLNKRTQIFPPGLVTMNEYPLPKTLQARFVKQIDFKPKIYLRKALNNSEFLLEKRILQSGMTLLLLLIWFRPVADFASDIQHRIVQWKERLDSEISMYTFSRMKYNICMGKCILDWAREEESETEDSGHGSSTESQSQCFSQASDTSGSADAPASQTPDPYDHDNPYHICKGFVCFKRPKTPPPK

Tests used:
[1] = biological target: T-ag peptide T-2(13), unphosphorylated (Simian virus 40) (UniProt Q3L6L5); assay: filter binding; conditions: saturation at 2 mM, relatively poor at 0.5 mM; pBR322 competitor, 37 C; also EMSA at 1 mM; synthetic protein; protein details: synthetic peptide; label: 5'-32P
[2] = biological target: T-ag peptide T-2(13), unphosphorylated (Simian virus 40) (UniProt Q3L6L5); assay: EMSA; conditions: 1 mM peptide; not highly sequence specific; synthetic protein; protein details: synthetic peptide; label: 5'-32P

Row | Sequence | binding result [1] | binding result [2]
1 | TAATTTTTTTTATTTATGCAGAGGCCGAGGCCGCCTCGGCCTCTGAGCTATTCCAGAAGTAGTG (double strand) [64-bp SV40 core origin] | binds | 
2 | GAGATGCATGCTTTGCATACTTCTGCCTGCTGGGGAGGGAATTCTTGAAGACGAAAGGGCCTCG (double strand) [64-bp enhancer control] |  | binds
